Test results published in patent US20260015677.
For some assays here: No signal at the amounts used counts as a negative.

Protein sequences, listed by entry. Tags and fused reporters are not part of them. Lines headed by an entry give the natural chain unless they say otherwise; changes in a name come on top.
UniProt J9VI03: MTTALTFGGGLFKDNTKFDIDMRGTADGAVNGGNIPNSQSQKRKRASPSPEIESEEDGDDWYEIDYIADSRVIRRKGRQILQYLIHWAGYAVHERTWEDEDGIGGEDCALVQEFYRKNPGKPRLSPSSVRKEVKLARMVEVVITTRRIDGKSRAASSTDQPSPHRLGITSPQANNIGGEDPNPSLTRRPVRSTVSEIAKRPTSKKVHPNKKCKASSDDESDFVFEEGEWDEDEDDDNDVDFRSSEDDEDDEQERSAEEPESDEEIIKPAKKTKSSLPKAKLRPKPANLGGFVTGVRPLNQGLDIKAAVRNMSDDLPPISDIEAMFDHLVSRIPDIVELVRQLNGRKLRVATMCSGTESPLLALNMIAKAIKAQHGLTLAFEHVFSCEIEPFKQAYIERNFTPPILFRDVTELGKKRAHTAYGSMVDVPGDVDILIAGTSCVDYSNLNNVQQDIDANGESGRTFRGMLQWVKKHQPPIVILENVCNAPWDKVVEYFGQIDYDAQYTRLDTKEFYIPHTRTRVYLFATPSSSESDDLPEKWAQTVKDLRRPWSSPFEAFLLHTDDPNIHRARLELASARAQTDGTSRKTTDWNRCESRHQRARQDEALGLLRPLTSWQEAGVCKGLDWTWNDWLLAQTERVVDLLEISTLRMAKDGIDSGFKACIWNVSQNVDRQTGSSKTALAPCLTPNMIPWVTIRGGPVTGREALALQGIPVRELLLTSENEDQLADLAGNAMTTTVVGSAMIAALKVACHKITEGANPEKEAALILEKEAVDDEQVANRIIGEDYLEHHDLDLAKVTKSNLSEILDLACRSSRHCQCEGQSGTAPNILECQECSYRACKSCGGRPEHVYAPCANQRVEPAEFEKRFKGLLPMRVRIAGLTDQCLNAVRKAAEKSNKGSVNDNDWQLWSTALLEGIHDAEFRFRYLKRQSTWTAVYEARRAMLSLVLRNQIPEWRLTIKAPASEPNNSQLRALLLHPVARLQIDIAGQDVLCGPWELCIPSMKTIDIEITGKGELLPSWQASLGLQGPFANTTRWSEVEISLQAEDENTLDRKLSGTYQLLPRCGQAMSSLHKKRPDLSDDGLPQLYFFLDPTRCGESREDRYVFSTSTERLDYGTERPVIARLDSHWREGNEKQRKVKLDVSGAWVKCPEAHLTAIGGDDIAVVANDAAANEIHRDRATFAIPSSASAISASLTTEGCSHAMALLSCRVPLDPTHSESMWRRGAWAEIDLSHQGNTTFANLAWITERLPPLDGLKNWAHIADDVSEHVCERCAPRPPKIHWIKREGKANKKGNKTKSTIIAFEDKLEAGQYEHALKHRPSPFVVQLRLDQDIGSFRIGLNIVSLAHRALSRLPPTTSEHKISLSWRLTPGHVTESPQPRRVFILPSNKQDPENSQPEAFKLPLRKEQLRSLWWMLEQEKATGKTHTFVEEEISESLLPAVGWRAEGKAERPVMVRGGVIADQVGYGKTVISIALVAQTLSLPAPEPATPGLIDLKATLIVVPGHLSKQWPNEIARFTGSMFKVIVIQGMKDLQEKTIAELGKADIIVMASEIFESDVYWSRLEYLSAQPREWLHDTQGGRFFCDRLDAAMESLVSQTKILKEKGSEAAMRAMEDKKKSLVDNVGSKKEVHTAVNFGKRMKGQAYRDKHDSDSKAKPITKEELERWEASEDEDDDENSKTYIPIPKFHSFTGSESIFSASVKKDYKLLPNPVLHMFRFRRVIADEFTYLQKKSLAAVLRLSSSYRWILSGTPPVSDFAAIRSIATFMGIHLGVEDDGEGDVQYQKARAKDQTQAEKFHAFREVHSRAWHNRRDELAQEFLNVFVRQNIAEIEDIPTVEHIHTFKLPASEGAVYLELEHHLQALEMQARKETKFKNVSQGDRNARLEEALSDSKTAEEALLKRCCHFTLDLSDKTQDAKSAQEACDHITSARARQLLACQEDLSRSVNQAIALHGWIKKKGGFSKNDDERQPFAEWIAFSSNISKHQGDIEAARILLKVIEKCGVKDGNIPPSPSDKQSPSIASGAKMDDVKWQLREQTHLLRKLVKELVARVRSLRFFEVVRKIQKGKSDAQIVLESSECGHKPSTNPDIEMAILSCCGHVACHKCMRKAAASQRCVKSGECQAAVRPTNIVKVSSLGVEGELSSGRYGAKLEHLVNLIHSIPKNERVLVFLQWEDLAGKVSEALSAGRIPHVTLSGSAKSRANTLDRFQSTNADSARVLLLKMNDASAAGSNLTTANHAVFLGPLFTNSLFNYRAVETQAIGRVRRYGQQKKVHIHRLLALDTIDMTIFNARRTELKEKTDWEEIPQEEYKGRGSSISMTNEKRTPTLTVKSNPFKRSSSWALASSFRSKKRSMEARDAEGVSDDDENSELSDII

What was measured:
[1] = target: DNMT5 C-terminal His-tagged (Cryptococcus neoformans) (UniProt J9VI03); experiment: activity assay; details: three 5mC on top strand only; bead-immobilised enzyme, anti-mC ELISA; beads alone no signal; 25 C; purified recombinant protein; label: 5'-biotin on bottom strand
[2] = target: DNMT5 (Cryptococcus neoformans) (UniProt J9VI03); experiment: activity assay; details: 5mC at first C of AscI site (GG[5mC]GCGCC) on top strand from primer SEQ:6; with 50 mM EDTA no activity

“GGGCGGCGACCTCGCGGGTTTTCGCTATTTATGAAAATCGTTTCCGGTTTAAGGCGTTTGTCATAACTTAATGTTTTTCCGTTCTTCTTCGTCGACGGGCTCCC (double strand) [hemimethylated DNA sequence 2]” was tested, and the “activity on this sequence” value [1] was “active”.

With “CCGGTAGGGGCCCATTATAGCCGAATTCGGCGCGCCAGGTGGCACTTTTCGGGGAAATGTGCGCGGAACCCCTATTTGTTTATTTTTCTAAATACATTCAAATATGTATCCGCTCATGAGACAATAACCCTGATAAATGC (double strand) [hemimethylated AscI substrate 195 bp]” the “activity on this sequence” value [2] was “not active”.
